According to patent US9617289B2, “RSV antiviral compounds” (JANSSEN R&D IRELAND, priority 2012, dated 2017):

The compounds below were run on HeLa cells (assay: Cytotoxicity in HeLa cells (ATP content, ATPlite kit); SI calculated as CC50/EC50). Conditions: SI is calculated as CC50/EC50, three days.
Format: cell-based

Row | Compound | SI | SI_TOX-HELA_wt
1 | CS(=O)(=O)CCCn1c(CN2C(=O)C3(CCOCC3)c3ccc(F)cc32)nc2cc(Cl)ccc21 [Compound 10, 1-((5-chloro-1-(3-(methylsulfonyl)propyl)-1H-benzo[d]-imidazol-2-yl)methyl)-6-fluoro-2′,3′,5′,6′-tetrahydro-spiro[indoline-3,4′-pyran]-2-one] | 49544 | –
2 | CC(C)(C)OC(=O)N1CCC2(CC1)C(=O)N(Cc1nc3cc(Cl)ccc3n1CCCS(C)(=O)=O)c1ccc(Br)cc12 [Compound 23, tert-butyl 5-bromo-1-((5-chloro-1-(3-(methyl-sulfonyl)propyl)-1H-benzo[d]imidazol-2-yl)methyl)-2-oxospiro[indoline-3,4′-piperidine]-1′-carboxylate] | 606 | –
3 | CS(=O)(=O)CCCn1c(CN2C(=O)C3(CCOCC3)c3cnccc32)cc2cc(Cl)ccc21 [Compound 57] | 842.91 | –
4 | CS(=O)(=O)CCCn1c(CN2C(=O)C3(CCN(C(=O)c4ccncc4)CC3)c3cc(Br)ccc32)nc2cc(Cl)ccc21 [Compound 22, 5-bromo-1-((5-chloro-1-(3-(methylsulfonyl)propyl)-1H-benzo[d]imidazol-2-yl)methyl)-1′-isonicotinoylspiro-[indoline-3,4′-piperidin]-2-one] | 3515 | –
5 | CS(=O)(=O)CCCn1c(CN2C(=O)C3(CCCC3)c3ccncc32)cc2cc(Cl)ccc21 [Compound 54, 1′-({5-chloro-1-[3-(methylsulfonyl)propyl]-1H-indol-2-yl}methyl)spiro [cyclopentane-1,3′-pyrrolo[2,3-c]pyridin]-2′(1′H)-one] | 20155 | –
6 | CS(=O)(=O)CCCn1c(CN2C(=O)C3(CCN(S(=O)(=O)c4ccc(F)cc4)CC3)c3ccccc32)nc2cc(Cl)ccc21 [Compound 34, 1-({5-chloro-1-[3-(methylsulfonyl)propyl]-1H-benzimidazol-2-yl}methyl)-1′-[(4-fluorophenyl)-sulfonyl]spiro[indole-3,4′-piperidin]-2(1H)-one] | >79744.4 | –
7 | CC(=O)N1CC2(C1)C(=O)N(Cc1nc3cc(Cl)ccc3n1CCCS(C)(=O)=O)c1ccccc12 [Compound 30, 1-acetyl-1′-({5-chloro-1-[3-(methylsulfonyl)propyl]-1H-benzimidazol-2-yl}methyl)spiro[azetidine-3,3′-indol]-2′(1′H)-one] | >405070 | –
8 | N#CCCCn1c(CN2C(=O)C3(CC(O)C3)c3ccccc32)nc2cc(Cl)ccc21 (stereo not drawn) [Compound 109, 4-{5-Chloro-2-[(3-hydroxy-2′-oxospiro[cyclobutane-1,3′-indol]-1′(2′H)-yl)methyl]-1H-benzimidazol-1-yl}butanenitrile] | – | >523866
9 | CC(C)(C)OC(=O)N1CC2(C1)C(=O)N(Cc1nc3cc(Cl)ccc3n1CCCC#N)c1ccccc12 [Compound 70, tert-butyl 1′-((5-chloro-1-(3-cyanopropyl)-1H-benzo[d]-imidazol-2-yl)methyl)-2′-oxospiro[azetidine-3,3′-indoline]-1-carboxylate] | >325484 and >313148 | –
10 | N#CCCCn1c(CN2C(=O)C3(CCNCC3)c3ccncc32)cc2cc(Cl)ccc21 [Compound 78, 4-(5-chloro-2-((2′-oxospiro[piperidine-4,3′-pyrrolo[2,3-c]-pyridin]-1′(2′H)-yl)methyl)-1H-indol-1-yl)butanenitrile hydrochloride] | 24938 | –
11 | CC(C)NC(=O)N[C@H]1C[C@@]2(C1)C(=O)N(Cc1nc3cc(Cl)ccc3n1CCCC#N)c1ccccc12 [Compound 144, 1-((1r,3r)-1′-((5-chloro-1-(3-cyanopropyl)-1H-benzo[d]imidazol-2-yl)methyl)-2′-oxospiro[cyclobutane-1,3′-indolin]-3-yl)-3-isopropylurea] | – | >435994
12 | N#CCCCn1c(CN2C(=O)C3(CN(C(=O)C4(O)CC4)C3)c3ccccc32)cc2cc(Cl)ccc21 [Compound 137] | – | 232965

Where “and” joins values, the source holds several entries; their conditions need not be identical. Identical values can stand only once. Counter-ions that a name gives are not always drawn. No dose or concentration is given here for some results.
